According to patent publication US12595505B2, “Compositions and methods for cellular phenotype assessment of a sample using confined volume arrays” (PATTERN BIOSCIENCE, INC., priority 2018, dated 2026):

System: S. aureus, E. faecium, K. pneumoniae, E. coli, P. aeruginosa isolates
Experiment: Droplet-array antibiotic susceptibility testing (AST), categorical agreement against broth microdilution, by antibiotic over all pathogens
Type: cell-based
Parameters: key to Error Type: VME—very major error; R called S; ME—major error, S called R
Settings: for CA (Categorical Agreement): all pathogens pooled, susceptible/resistant call vs broth microdilution reference (CLSI), imaged over 4 hours; for Error Type: discordant calls vs broth microdilution reference

Compound	CA (Categorical Agreement)	Error Type
CO[C@@]1(NC(=O)Cc2cccs2)C(=O)N2C(C(=O)O)=C(COC(N)=O)CS[C@@H]21 [Cefoxitin]	100.0%	
Gentamicin	100.0%	
CO/N=C(\C(=O)N[C@@H]1C(=O)N2C(C(=O)O)=C(CSc3nc(=O)c(=O)[nH]n3C)CS[C@H]12)c1csc(N)n1 [Ceftriaxone]	95.7%	ME
NC[C@H]1O[C@H](O[C@H]2[C@H](O)[C@@H](O[C@H]3O[C@H](CO)[C@@H](O)[C@H](N)[C@H]3O)[C@H](N)C[C@@H]2N)[C@H](N)C[C@@H]1O [Tobramycin]	100.0%	
CC[C@H]1OC(=O)[C@H](C)[C@@H](O[C@H]2C[C@@](C)(OC)[C@@H](O)[C@H](C)O2)[C@H](C)[C@@H](O[C@@H]2O[C@H](C)C[C@H](N(C)C)[C@H]2O)[C@](C)(O)C[C@@H](C)C(=O)[C@H](C)[C@@H](O)[C@]1(C)O [Erythromycin]	100.0%	
C[C@@H](O)[C@H]1C(=O)N2C(C(=O)O)=C(S[C@@H]3CN[C@H](C(=O)N(C)C)C3)[C@H](C)[C@H]12 [Meropenem]	100.0%	
NCC[C@H](O)C(=O)N[C@@H]1C[C@H](N)[C@@H](O[C@H]2O[C@H](CN)[C@@H](O)[C@H](O)[C@H]2O)[C@H](O)[C@H]1O[C@H]1O[C@H](CO)[C@@H](O)[C@H](N)[C@H]1O [Amikacin]	100.0%	
CN[C@H](CC(C)C)C(=O)N[C@H]1C(=O)N[C@@H](CC(N)=O)C(=O)N[C@H]2C(=O)N[C@H]3C(=O)N[C@H](C(=O)N[C@H](C(=O)O)c4cc(O)cc(O)c4-c4cc3ccc4O)[C@H](O)c3ccc(c(Cl)c3)Oc3cc2cc(c3O[C@@H]2O[C@H](CO)[C@@H](O)[C@H](O)[C@H]2O[C@H]2C[C@](C)(N)[C@H](O)[C@H](C)O2)Oc2ccc(cc2Cl)[C@H]1O [Vancomycin]	96.0%	ME
